# Test results: the supplement of paper PMC9931576
# Human monoclonal antibodies against the spike receptor-binding domain (heavy:light variable regions). IC50 against pseudoviruses bearing the spike of naturally observed variants; lower = stronger; >10 µg/ml means not reached at the top dose. No active / inactive call. The stated detection limit is 0.0005 µg/ml; values near or below 0.001 µg/ml lie at the floor of the assay.
# B1: BD56-1567 (protein)
# chain 1: EVQLVESGGDLAQPGGSLRLSCEASGRTFSSYEMNWVRQAPGKGLEWVSHISSSGTTISYADSVKGRFTVSRDNTKNSLFLQMNSLRVEDTAVYYCASGLRYSSSWVVADYYYYAMDVWGQGTTVTVSS
# chain 2: DIQMTQSPSSLSASVGDRVTITCRASQTISNYLNWYQQKPGKAPKLLIYAASSLHSGVPSRFSGSRSGTDFTLTISSLQPEDFATYYCQQSYSTPYTFGQGTKLEIK
# B2: BD56-1573 (protein)
# chain 1: QVQLVQSGAEVKKPGSSVKVSCKASGDTFSNYGFSWVREAPGQGLEWMGRIIPVFGKTNYAQKFQGRVTIGADTSTSTAYMELSRLTSEDTAVYYCARDKVLGIQIWLDYFDNWGQGTLVTVSS
# chain 2: QSVLTQPPSVSGAPGQRVTISCTGSSSNIGAGYNVHWYQLLPGTAPKLLIYDNNNRPSGVPDRFSGSKSGTSASLAITGLQAEDEADYYCQSYDSSLSAFYVFGTGTKVTVL
# B3: BD56-1574 (protein)
# chain 1: EVQLVESGGGLVQPGRSLRLSCAASGFSFDDYAMHWVRQVPGKGLEWVSGLGWNGGGIGYADSVRGRFTISRDNAKNSLYLQMNSLRAEDTAFYYCAKAGCSSTSCYYYYYYMDVWGKGTTVTVSS
# chain 2: EIVLTQSPGTLSLSPGERATLSCRASQSVGSTYLAWYQQKPGQAPRLLIYGASRRATGIPDRFSGSGSGTDFTLTISRLEPEDFAVYYCQQYGSSLAFSFGQGTKLEIK
# B4: BD56-1577 (protein)
# chain 1: EVLLVESGGGFVKPGGSLRLSCAASGFSLRDAWMNWVRQAPGKGLEWVGRINSETDGGTPDYAAPVKGRFIISRDDSKNTLYLQMNSLKIEDTGVYYCWFGELLHYYNYGLDVWGQGTTVTVSS
# chain 2: DIQMTQSPSTLSASVGDRVTITCRASQSITTWLAWYQQRPGKAPKLLIYKASTLQTGVPSRFSGSGSGTEFTLTIDSLRPDDFATYYCQQYDSHLYTFGQGTKLEIK
# B5: BD56-1586 (protein)
# chain 1: QLQLQESGPGLVKPSETLSLTCTVSGGSISSSTYYWGWIRQPPGKGLEWIGSIYYSGSTHYNPSLKSRLTMSIDTSRNEFSLKLTSVTAADTAMYYCVRVRSSANIMLRGDFDYWGQGTLVTVSS
# chain 2: QSALTQPASVSGSPGQSITISCTGTSSDVGSYNLVSWYQQLPGKAPKLMIYEVNKRPSGVSNRFSGSKSGNTASLTISGLQADDEADYYCCSLAISYTWVFGGGTKLTVL
# B6: BD56-1587 (protein)
# chain 1: QVQLQESGPGLVKPSGTLSLTCAVSGGSISSSYWWTWVRQSPGKGLEWVGEIFHTGSTNYNPSLKSRITMSVDKSKNQFSLILSSVTAADTAVYYCARRSSGYDGYWYFDLWGRGTLVTVSS
# chain 2: DIQMTQSPSSLSASVGDRVTITCRASQSISNYLNWYQHKPGKAPKLLIYAASTLQSGVPSRFTVSGSGTDFTLTIDSLQPEDFATYYCQQSYSTPLTFGGGTKVEIK
# Target: SARS-CoV-2 Omicron BA.1 spike pseudovirus
# Test: pseudovirus neutralization IC50; higher = weaker neutralization
# Protocol: (§1)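 Single-round VSV luciferase pseudovirus mixed with antibody dilutions for 1 h and put on Huh-7 cells for about a day; IC50 from the dose curve.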
row,Binder,pseudovirus neutralization IC50 [µg/mL]
1,B1,> 10
2,B2,0.0408
3,B3,> 10
4,B4,2.7
5,B5,> 10
6,B6,> 10

# Target: SARS-CoV-2 Omicron BA.2 spike pseudovirus
# Test: as above
# Protocol: as §1
row,Binder,pseudovirus neutralization IC50 [µg/mL]
1,B1,> 10
2,B2,0.0253
3,B3,> 10
4,B4,1.24
5,B5,> 10
6,B6,> 10

# Target: SARS-CoV-2 Omicron BA.2.75 spike pseudovirus
# Test: as above
# Protocol: as §1
row,Binder,pseudovirus neutralization IC50 [µg/mL]
1,B1,> 10
2,B2,0.0222
3,B3,> 10
4,B4,1.16
5,B5,> 10
6,B6,> 10

# Target: SARS-CoV-2 Omicron BA.5 spike pseudovirus
# Test: as above
# Protocol: as §1
row,Binder,pseudovirus neutralization IC50 [µg/mL]
1,B1,> 10
2,B2,6.1
3,B3,> 10
4,B4,0.774
5,B5,> 10
6,B6,> 10

# Target: SARS-CoV-2 Omicron BQ.1.1 spike pseudovirus
# Test: as above
# Protocol: as §1
row,Binder,pseudovirus neutralization IC50 [µg/mL]
1,B1,> 10
2,B2,> 10
3,B3,> 10
4,B4,1.02
5,B5,> 10
6,B6,> 10

# Target: SARS-CoV-2 Omicron XBB spike pseudovirus
# Test: as above
# Protocol: as §1
row,Binder,pseudovirus neutralization IC50 [µg/mL]
1,B1,> 10
2,B2,> 10
3,B3,> 10
4,B4,1.27
5,B5,> 10
6,B6,> 10

# Target: SARS-CoV-2 early D614G spike pseudovirus
# Test: as above
# Protocol: as §1
row,Binder,pseudovirus neutralization IC50 [µg/mL]
1,B1,> 10
2,B2,0.0376
3,B3,> 10
4,B4,1.18
5,B5,> 10
6,B6,> 10
